# Source: publication PMC7182274 (PLoS Pathogens, 2020)
# Target: F. novicida ClpB (wild-type) (F. novicida)
substance,measurement,value
F. novicida ClpB (wild-type),stoichiometry N,6
